A mixed list of measured activities; the numbers were collected in NIAID ChemDB.

All rows: tests in culture; species: Candida albicans; measure: MFC

Blank or dashed fields: not listed here. Lines come from different laboratories, so protocols vary. a–b is a range or a potency band.

structure | strain | read by | result
CCC(C)CC(C)CCCCCCCCC(=O)NC1C[C@@H](O)[C@@H](O)NC(=O)[C@@H]2[C@@H](O)CCN2C(=O)[C@H]([C@@H](O)CC(N)=O)NC(=O)[C@H]([C@H](O)[C@@H](O)c2ccc(OP(=O)([O-])O)cc2)NC(=O)[C@@H]2C[C@@H](O)CN2C(=O)[C@H]([C@H](C)O)NC1=O.[Na+] | MY1208 |  | 4 µg/mL
Cc1nn(-c2ccccc2)c2c1C(c1c(O)c3ccccc3oc1=O)c1c(oc3ccccc3c1=O)O2 |  | agar diffusion / agar | 100 µg/mL
COc1cc(C(=O)OCCc2ccc(O)cc2)ccc1O | ATCC 10231 | broth dilution | 250 µg/mL
c1ccc([Se][Se]c2ccccc2)cc1 |  | broth dilution | 8–32 µg/mL
C[C@H]1[C@H](O)[C@@H](C)/C=C/C=C/C=C/C=C/C=C/C=C/C=C/[C@H](O[C@@H]2O[C@H](C)[C@@H](O)[C@H](N)[C@@H]2O)C[C@@H]2O[C@](O)(C[C@@H](O)C[C@@H](O)CC[C@H](O)[C@@H](O)C[C@@H](O)CC(=O)O[C@H]1C)C[C@H](O)[C@H]2C(=O)O |  |  | 0.25 µg/mL
COc1cccc(CN=C=S)c1 |  | broth dilution | 150 µg/mL
CCC(C)CCCCCCCCCCC(=O)N[C@H]1C[C@@H](O)[C@@H](O)NC(=O)C2[C@@H](O)[C@@H](C)CN2C(=O)C(CO)NC(=O)C([C@H](O)C(O)c2ccc(O)cc2)NC(=O)NC(=O)[C@@H]2C[C@@H](O)CN2C(=O)[C@H]([C@@H](C)O)NC1=O |  |  | 4 µg/mL
O=c1oc2ccccc2c(O)c1C(c1c(O)c2ccccc2oc1=O)c1c[nH]c2ccccc12 |  | agar diffusion / agar | 100 µg/mL
Clc1ccc(COC(Cn2ccnc2)c2ccc(Cl)cc2Cl)c(Cl)c1 |  |  | 32 µg/mL
C=C(Cl)/C=C/[C@H](O)CC(=C)C[C@H]1OC2[C@@H](O)[C@]3(O)C[C@@H](O)[C@H](C)[C@H](CCC/C=C\[C@@H]4C[C@@H](O)C[C@]5(C[C@H](OC)CC(CC(=O)[C@@H](C)[C@H](OC(C)=O)[C@@H](C)C(=C)C[C@@H]6C[C@@](C)(O)C[C@]7(C[C@H](OC(C)=O)CC(CC(=O)O[C@@H]([C@@H]1O)[C@H]2C)O7)O6)O5)O4)O3 | ATCC 90028 |  | 6.25 µg/mL
S=C=NCc1ccccc1 |  | broth dilution | 600 µg/mL
C[C@@H]1[C@H](O)[C@@H](C)/C=C/C=C/C=C/C=C/C=C/C=C/C=C/[C@H](O[C@@H]2O[C@H](C)[C@@H](O)[C@H](N)[C@@H]2O)C[C@@H]2O[C@](O)(C[C@@H](O)C[C@@H](O)[C@H](O)CC[C@@H](O)C[C@@H](O)CC(=O)O[C@H]1C)C[C@H](O)[C@H]2C(=O)O | ATCC 10231 | broth dilution | 9.8 µg/mL
N#CCc1ccccc1 |  | broth dilution | 5000 µg/mL
CC(=O)N1CCN(c2ccc(OC[C@H]3CO[C@](Cn4ccnc4)(c4ccc(Cl)cc4Cl)O3)cc2)CC1 |  |  | 32 µg/mL
Clc1ccc([Se][Se]c2ccc(Cl)cc2)cc1 |  | broth dilution | >64 µg/mL

For reference, 2 entries again:

structure | strain | read by | result
C[C@H]1[C@H](O)[C@@H](C)/C=C/C=C/C=C/C=C/C=C/C=C/C=C/[C@H](O[C@@H]2O[C@H](C)[C@@H](O)[C@H](N)[C@@H]2O)C[C@@H]2O[C@](O)(C[C@@H](O)C[C@@H](O)CC[C@H](O)[C@@H](O)C[C@@H](O)CC(=O)O[C@H]1C)C[C@H](O)[C@H]2C(=O)O |  |  | 0.25 µg/mL
C[C@@H]1[C@H](O)[C@@H](C)/C=C/C=C/C=C/C=C/C=C/C=C/C=C/[C@H](O[C@@H]2O[C@H](C)[C@@H](O)[C@H](N)[C@@H]2O)C[C@@H]2O[C@](O)(C[C@@H](O)C[C@@H](O)[C@H](O)CC[C@@H](O)C[C@@H](O)CC(=O)O[C@H]1C)C[C@H](O)[C@H]2C(=O)O | ATCC 10231 | broth dilution | 9.8 µg/mL